PubChem BioAssay AID624099 | ICCB-Longwood | 2012

Screen: 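Human genes that papillomavirus E2 requires to repress the HPV18 LCR promoter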 (primary screen)
System: human C33A cervical carcinoma cells (HPV-negative) stably expressing BPV1 E2 and an HPV18 LCR luciferase reporter
Knock-down reagent: siRNA pool against human genes, 40 nM
Timing: 72 h
Read-out: 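Per-well luciferase luminescence, z-scored on each plate against the plate mean and SD with control wells left out, then averaged across three replicate plates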
Reading the numbers: mean z-score and z-score: higher = stronger reporter signal, weaker E2 silencing
Active means: 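Hit if mean z-score reaches 2 and two or more of three replicate z-scores also reach 2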
Shown is an unselected part of about 21,000 reagents tested. Over the whole deposit, 497 (2.4%) got an active call. 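Higher z means weaker E2 silencing; only reporter increases were scored, and knock-downs that hurt cell survival may mask genuine repressor factors.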 No sequences are given here.

no.	gene knocked down	mean z-score	z-score, replicate A	z-score, replicate B	z-score, replicate C	activity call
1	ZFAT	-0.16	-0.25	-0.03	-0.2	inactive
2	ALDH5A1	-0.72	-0.49	-0.8	-0.86	inactive
3	CREBBP	1.71	1.66	1.77	1.69	inactive
4	GPS1	-0.86	-0.88	-0.87	-0.82	inactive
5	TRIM51G	-0.32	-0.44	-0.15	-0.36	inactive
6	POU2AF1	-1.31	-1.26	-1.2	-1.46	inactive
7	CABP1	0.6	0.8	0.5	0.51	inactive
8	GPR173	0.39	0.18	0.4	0.58	inactive
9	LOC402669 (retired record)	-0.08	-0.01	-0.21	-0.01	inactive
10	BICRAL	-0.8	-0.99	-0.98	-0.43	inactive
11	CRISPLD1	-0.42	-0.4	-0.73	-0.12	inactive
12	MMUT	-0.47	-0.39	-0.47	-0.55	inactive
13	WNT2	0.34	0.3	0.3	0.4	inactive
14	FXR2	-1.31	-0.78	-1.51	-1.66	inactive
15	QTRT1	0.32	0.01	0.72	0.25	inactive
16	PCSK5	-0.9	-0.82	-1.22	-0.67	inactive
17	TCL1B	0.17	0.19	0	0.31	inactive
18	CACNG4	0.75	1.03	0.7	0.52	inactive
19	SETD4	-0.29	-0.3	-0.21	-0.36	inactive
20	KLHL23	0.33	1.48	0.11	-0.59	inactive
21	ITGA7	-0.47	-0.45	-0.41	-0.56	inactive
22	STOML1	-1.14	-1.13	-1.26	-1.02	inactive
23	STX19	0.28	0.22	0.33	0.29	inactive
24	TMEM86A	0.87	0.9	1.22	0.49	inactive
25	LOC400411 (retired record)	-0.62	-0.45	-0.99	-0.41	inactive
26	CNBP	0.43	0.02	0.77	0.51	inactive
27	PFN4	0.41	0.38	0.41	0.42	inactive
28	H2BC9	-1.44	-1.32	-1.81	-1.19	inactive
29	LOC283166 (retired record)	0.38	-0.26	0.41	1	inactive
30	RBP2	0.35	0.27	0.36	0.42	inactive
31	SOX4	-0.2	-0.24	-0.17	-0.21	inactive
32	LOC392702 (retired record)	-0.47	-0.28	-0.56	-0.56	inactive
33	ZNF770	1.62	1.86	1.68	1.31	inactive
34	MAN2B2	1.61	1.91	2.48	0.44	inactive
35	ZNF277	-1.13	-1.08	-1.18	-1.14	inactive
36	SHMT1	-1.8	-1.38	-1.84	-2.19	inactive
37	BCOR	1.97	2.25	2.08	1.59	inactive
38	MED23	1.93	2.16	1.88	1.74	inactive
39	HECTD3	0.27	0.69	0.35	-0.23	inactive
40	MIEF1	1.51	1.3	1.57	1.67	inactive
41	LOC402524 (retired record)	0.34	0.01	0.33	0.67	inactive
42	BTF3P13	1.41	1.33	1.36	1.53	inactive
43	ABHD3	-0.71	-1.04	-0.6	-0.49	inactive
44	CCL16	-0.05	-0.07	0	-0.08	inactive
45	POP1	1.57	1.32	1.46	1.92	inactive
46	NPB	-0.15	-0.04	-0.19	-0.23	inactive
47	ZSCAN32	-1.42	-1.12	-1.12	-2.03	inactive
48	LOC401616 (retired record)	0.21	0.54	0.25	-0.15	inactive
49	TCP11L1	0.21	0.42	0.16	0.05	inactive
50	ZNF263	-0.13	-0.28	-0.11	-0.01	inactive
51	TSC22D3	0.06	0.1	0.14	-0.07	inactive
52	TMEM87A	-1.1	-1.11	-1.15	-1.05	inactive
53	LOC399737 (retired record)	-0.35	-0.77	-0.08	-0.2	inactive
54	TLE4	1.24	0.99	1.54	1.18	inactive
55	PECR	1.15	0.6	0.85	2.01	inactive
56	SYTL4	-0.14	-0.22	-0.16	-0.05	inactive
57	OR52H1	-0.33	-0.45	-0.06	-0.49	inactive

Targets above whose target name starts with C or c (6):
gene knocked down	mean z-score	z-score, replicate A	z-score, replicate B	z-score, replicate C	activity call
CREBBP	1.71	1.66	1.77	1.69	inactive
CABP1	0.6	0.8	0.5	0.51	inactive
CRISPLD1	-0.42	-0.4	-0.73	-0.12	inactive
CACNG4	0.75	1.03	0.7	0.52	inactive
CNBP	0.43	0.02	0.77	0.51	inactive
CCL16	-0.05	-0.07	0	-0.08	inactive
